The results in this text go back to patent US10072106B2, “N-halamine melamine derivatives as novel decontamination and biocidal agents” (dated 2018).

Structures are written as SMILES.

The subject of assay [1] is Escherichia coli (ATCC 25922). As to the kind of experiment: Biocidal efficacy sandwich test of melamine-halamine containing paint. The settings on record: 5% compound in paint.
Assay [2] has as its system Staphylococcus aureus (ATCC 29213). The assay is described as above. The following applies: 5% compound in paint.

As to `O=C(c1cc(C(=O)N(Cl)c2nc(N(Cl)Cl)nc(N(Cl)Cl)n2)cc(C(=O)N(Cl)c2nc(N(Cl)Cl)nc(N(Cl)Cl)n2)c1)N(Cl)c1nc(N(Cl)Cl)nc(N(Cl)Cl)n1`, the Log reduction in assay [1] (contact time 0 min) is 0 log; in assay [1] (contact time 30 min), 0.35 log; in assay [1] (contact time 60 min), 1.36 log; in assay [1] (contact time 120 min), 2.44 log; in assay [2] (contact time 0 min), 0 log; in assay [2] (contact time 30 min) it was 0.49 log. The Log reduction in assay [2] (contact time 60 min) was 0.28 log; in assay [2] (contact time 120 min), 2.67 log. Also, the “Total Bacterial Concentration” value is given as 6.19 × 10^6 cfu/mL in assay [1] (contact time 0 min); 2.75 × 10^6 cfu/mL in assay [1] (contact time 30 min); 2.73 × 10^5 cfu/mL in assay [1] (contact time 60 min); 2.25 × 10^4 cfu/mL in assay [1] (contact time 120 min); 4.47 × 10^6 cfu/mL in assay [2] (contact time 0 min); 1.53 × 10^6 cfu/mL in assay [2] (contact time 30 min). Besides, the results for the “Total Bacterial Concentration” value in assay [2] (contact time 60 min) and in assay [2] (contact time 120 min) were 2.52 × 10^6 cfu/mL and 1.02 × 10^4 cfu/mL, respectively.
